EC50 data for one molecule are collected here from BindingDB's records for doi:10.1021/acs.jmedchem.7b01709 (Kobe Gakuin University, 2018).

SMILES strings stand for the structures.

A short description of the test: Inhibition of protease L10F/V32I/M46I/I47V/Q58E/I84V mutant in HIV1 A17 infected in human MT4 cells assessed as reduction in virus-induced cytopathic effect after 5 days by MTT assay.

In the case of `Cc1cccc(C)c1OCC(=O)N[C@@H](Cc1ccccc1)[C@@H](O)C[C@H](Cc1ccccc1)NC(=O)[C@H](C(C)C)N1CCCNC1=O` [CHEBI:31781], the EC50 came out at 1160 nM.
